Ends that are not written are not given here. * marks the point of attachment. Biotin = O=C1N[C@H]2[C@H](CS[C@H]2CCCCC(=O)*)N1
System: antibodies to C. abortus
Experiment: ELISA, comparison of compounds for sensitivity and specificity on 553 sera (second Table 4)
Format: binding, sheep
Conditions: for Sensitivity % Clinical/Micro pos'ive: 153 animals with clinical/microbiological evidence of infection; for Sensitivity % All infected sheep: all 198 challenged animals taken as positive
[1] = 1X CO: positivity defined as an OD ≧ the Cutoff OD
[2] = 2X CO: positivity defined as an OD ≧ 2 times the Cutoff OD

Row | Substance | Specificity % [1] | Sensitivity % Clinical/Micro pos'ive (1X CO) | Sensitivity % All infected sheep (1X CO) | Specificity % [2] | Sensitivity % Clinical/Micro pos'ive (2X CO) | Sensitivity % All infected sheep (2X CO)
1 | Biotin-KASSAAFNLVGLIVKGSSIAADQ [Compound 2/L] | 54.4% | 88.9% | 79.8% | 75.2% | 76.5% | 64.7%
2 | Biotin-KTITGMGAVPTGTAAANYKT [Compound 1/AX] | 99.2% | 65.4% | 51.5% | 99.7% | 56.2% | 43.4%
3 | GKGSSIAADQNKGSSIAADQ [Compound #2] | 66.8% | 76.5% | 65.7% | 80.9% | 65.3% | 53.0%
4 | GSGSGSGSGSGGVKGSSIAADQ [Compound 2-A] | 60.3% | 86.3% | 75.3% | 76.1% | 77.8% | 66.2%
5 | SGTAAANYKTKGTAAANYKT [Compound #1] | 48.2% | 84.3% | 73.7% | 79.4% | 69.9% | 59.1%
